These results are taken from publication PMC6028965, “Mechanism of vaccinia viral protein B14–mediated inhibition of IκB kinase β activation” (The Journal of Biological Chemistry, 2018).

The assay deals with untagged B14 protein (vaccinia virus, UniProt P24772 1-149). The experiment in a line: pull-down.

B1: GST-IKKβ-ULD-SDD M5 mutant (residues 421–426 substituted with GGGGS) (domain or fragment)
chain: LNLKLVHILNMVTGTIHTYPVTEDESLQSLKARIQQDTGIPEEDQELLQEAGLALIPDKPATQCISDGKLNEGHTLDMDLVFLFDNSKITYETQISPRPQPESVSCILQEPKRNGGGGSRKVWGQVWHSIQTLKEDCNRLQQGQRAAMMNLLRNNSCLSKMKNSMASMSQQLKAKLDFFKTSIQIDLEKYSEQTEFGITSDKLLLAWREMEQAVELCGRENEVKLLVERMMALQTDIVDLQRSPMGRKQGGTLDDLEEQARELYRRLREKPRDQRTEGDSQEMVRLLLQAIQSFEKKVRVIYTQLSKTVVCKQKALELLPKVEEVVSLMNEDEKTVVRLQEKRQKELWNLLKIACSKVRGPVSGSPDSMNA
Take B1: the binding result is “binds”.

B2: GST-IKKβ-ULD-SDD M6 mutant (residues 577–583 replaced with GGGGS) (domain or fragment)
chain: LNLKLVHILNMVTGTIHTYPVTEDESLQSLKARIQQDTGIPEEDQELLQEAGLALIPDKPATQCISDGKLNEGHTLDMDLVFLFDNSKITYETQISPRPQPESVSCILQEPKRNLAFFQLRKVWGQVWHSIQTLKEDCNRLQQGQRAAMMNLLRNNSCLSKMKNSMASMSQQLKAKLDFFKTSIQIDLEKYSEQTEFGITSDKLLLAWREMEQAVELCGRENEVKLLVERMMALQTDIVDLQRSPMGRKQGGTLDDLEEQARELYRRLREGGGGSEGDSQEMVRLLLQAIQSFEKKVRVIYTQLSKTVVCKQKALELLPKVEEVVSLMNEDEKTVVRLQEKRQKELWNLLKIACSKVRGPVSGSPDSMNA
As to B2, the binding result is given as “binds”.
